The subject of data set [1] is Rsp (AraC-type regulator) (Staphylococcus aureus). Kind of data set: EMSA. The note with it: 1.5 ug Rsp, 8 fmol DNA, shift unchanged by 200-fold excess salmon sperm DNA; LightShift chemiluminescent EMSA kit; 8 fmol biotinylated DNA, 1.5 ug Rsp (65-365 ug/ml tested), 20 min at room temperature, 5% nondenaturing PAGE; recombinant protein; protein details: His tag (pQE-9); label: 5' biotin (forward primer); probe letters rebuilt from the primers and the genome. (In general: In EMSA bound probe runs differently from free probe, usually more slowly.)

Data set [2] shares this test system. Kind of data set: competition with a labelled probe. The settings on record: 200-fold excess unlabeled, LightShift chemiluminescent EMSA kit, 8 fmol biotinylated DNA, 1.5 ug Rsp (65-365 ug/ml tested), 20 min at room temperature, 5% nondenaturing PAGE, recombinant protein, protein details: His tag (pQE-9), probe letters rebuilt from the primers and the genome.

The exact form of at least one protein or probe is not confirmed.

In the case of “GATTGATCAGTTCCTAACTCGCTATGAAGCAAGTTGCCAGGCGTACAAGGATATGCATCAAGATCAACACTTATCTTCTCAATTTAATACAAATCTATTTGAAGGAGATAAAGCACTCGTCACAAAATTTTTGGAAATCAATAGAACGCTTTCATAATAAGGGTTTGAAGTTTTATAATAGAAAAAAATTATTGAATTATGTTTGACATTTACATAAAAATAAGCAAATAATTGAGAAAAATAATCATTACGATTTGATTAAGTAATGCAACTTATCAATTTAGAAAGAGGAAAAGCAAATGAGAAAACTAACTAAAATGAGTGCAATGTTACTTGCATCAGGGCTAATTTTAACTGGTTGTGGCGGTAATAAAGGTTTAG (double strand) [cntA promoter fragment (381 bp)]”, the binding result in data set [1] is reported as “binds”. With “ACTTAGTAATCGGTTGTTGTATCAACATGCAACCGTAAACCTTATTTAAAGTTGCTTCTTGTGGCTCTACAAGCGAATGCAGTTGTCCGTTAACTACATTCACTTAGATGCTTTTACTGTTTTCACCTCAACTAAAACTTCAAAAAAGTTGCAGAAAACAAATCGTAACTATTACGATTTGATTATATACTATATTAGTTGAGAATCATTGTCAATAAAGGTTGTAAATGAATGCACATTTATATTTTGATAATCCTTCCATAAACATCGTATTCTCAGCACATTCAAGTCTTTTTGAAAATTTTTATCAATAATTGAATAGAAGTTCCGTTCTCGTCAGTTCAAAATTTTACGTAAGTTGTCTCTGCGTATTGCTTTAGTGAGAATAACCCACACTTGTGGAAACGTCCTTTTGTTAATCTACAATGGATCCCCTTGTCTTTCGCTAACATTTCCTATCACCAATCCTGTAACGAATTTTCATCGTCAAGTTG (double strand) [cntK promoter fragment, unlabeled competitor]”, in data set [2] (reduces shift of biotinylated cntK probe), the binding result is given as “binds”. As for “GATTGATCAGTTCCTAACTCGCTATGAAGCAAGTTGCCAGGCGTACAAGGATATGCATCAAGATCAACACTTATCTTCTCAATTTAATACAAATCTATTTGAAGGAGATAAAGCACTCGTCACAAAATTTTTGGAAATCAATAGAACGCTTTCATAATAAGGGTTTGAAGTTTTATAATAGAAAAAAATTATTGAATTATGTTTGACATTTACATAAAAATAAGCAAATAATTGAGAAAAATAATCATTACGATTTGATTAAGTAATGCAACTTATCAATTTAGAAAGAGGAAAAGCAAATGAGAAAACTAACTAAAATGAGTGCAATGTTACTTGCATCAGGGCTAATTTTAACTGGTTGTGGCGGTAATAAAGGTTTAG (double strand) [cntA promoter fragment, unlabeled competitor]”, the binding result in data set [2] (reduces shift of biotinylated cntA probe) is reported as “binds”. With “ACTTAGTAATCGGTTGTTGTATCAACATGCAACCGTAAACCTTATTTAAAGTTGCTTCTTGTGGCTCTACAAGCGAATGCAGTTGTCCGTTAACTACATTCACTTAGATGCTTTTACTGTTTTCACCTCAACTAAAACTTCAAAAAAGTTGCAGAAAACAAATCGTAACTATTACGATTTGATTATATACTATATTAGTTGAGAATCATTGTCAATAAAGGTTGTAAATGAATGCACATTTATATTTTGATAATCCTTCCATAAACATCGTATTCTCAGCACATTCAAGTCTTTTTGAAAATTTTTATCAATAATTGAATAGAAGTTCCGTTCTCGTCAGTTCAAAATTTTACGTAAGTTGTCTCTGCGTATTGCTTTAGTGAGAATAACCCACACTTGTGGAAACGTCCTTTTGTTAATCTACAATGGATCCCCTTGTCTTTCGCTAACATTTCCTATCACCAATCCTGTAACGAATTTTCATCGTCAAGTTG (double strand) [cntK promoter fragment (494 bp)]”, in data set [1], the binding result is “binds”.
